Compound potency records, mixed from different reports. Data source: NIAID ChemDB in PubChem.

Shared fields: whole-cell or culture tests

Percent inhibition refers to the dose given; in toxicity tests it is the harm to the cells. ECn: concentration that inhibits the pathogen or its effect by n%. Conditions beyond the fields shown may differ between rows. Two numbers with a dash give a range or band. An empty or dashed field is not shown. A number after MIC or MFC names an inhibition level or a share of isolates.

SMILES	endpoint	cell line	tested at	read by	strain	mutations	agent	result
CN(C)c1ncnc2c1ncn2Cc1ccc(NC(=O)C(Cc2ccccc2)NC(=O)OCc2ccccc2)cc1	EC50	M-HELA		plaque count			Coronavirus	>50 µM
Cc1nc(N[C@H]2CCOC[C@@H]2C)nc(-n2ccnc2)c1[N+](=O)[O-]	inhibition		0.6 µM	plaque count			Cytomegalovirus	99.9%
Cc1cc(NS(=O)(=O)c2ccc(NC(=S)Nc3ccccn3)cc2)no1	EC50	CEM174		syncytia			SIV	8 µM
Nc1nc2c(ncn2COC(CO)CO)c(=O)[nH]1	EC50	MRC-5		plaque count	CSG		Vervet monkey cytomegalovirus	13 µM
CCC(CC)O[C@@H]1C=C(C(=O)O)C[C@H](N)[C@H]1NC(C)=O	EC50	MDCK		plaque count	Isolate C17C		Influenza B virus	0.055 µg/mL
Cc1cc(NS(=O)(=O)c2ccc(NC(=S)Nc3ccc(Cl)c(Cl)c3)cc2)no1	EC50	CEM174		syncytia			SIV	4.4 µM
CCC(C)n1ncn(-c2ccc(N3CCN(c4ccc(OC[C@H]5CO[C@](Cn6cncn6)(c6ccc(Cl)cc6Cl)O5)cc4)CC3)cc2)c1=O	inhibition		2 µg/mL	broth dilution	AF293	mpkC	Aspergillus fumigatus	99.65%
CN(C)c1ncnc2c1ncn2Cc1ccc(N)cc1	EC50	M-HELA		plaque count			Coronavirus	>50 µM
Cc1cccc(NC(=S)Nc2ccc(S(=O)(=O)Nc3cc(C)on3)cc2)c1	EC50	CEM174		syncytia			SIV	2.1 µM
Nc1nc2c(ncn2COC(CO)CO)c(=O)[nH]1	EC50			plaque count	VR4990 (ganciclovir-resistant)		Human cytomegalovirus	23 µM
O=C(NCc1ccc(Cl)cc1)c1c[nH]c2ccc(CCCO)cc2c1=O	EC50			plaque count			Simian varicella-zoster virus	3.7 µM
CO[C@@H]1[C@H](O)[C@@H](CO)O[C@H]1n1cnc2c(=O)[nH][nH]c(=O)c21	EC50	VERO E6					West Nile virus	>70 µM
Cc1nc(N2CCOC[C@@H]2C)nc(-n2ccnc2)c1[N+](=O)[O-]	inhibition		0.4 µM	plaque count			Cytomegalovirus	99.9%
O=C(N[C@@H](Cc1ccccc1)C(=O)C(F)(F)CN(Cc1ccccc1)S(=O)(=O)c1ccccc1)OCc1ccccc1	EC90	CEM		p24	IIIB		HIV-1	1 µM
CCc1nc(CC(=O)NN=C(C)C)nn1CC	MIC						Respiratory syncytial virus	>400 µg/mL
Nc1ncnc2c1ncn2Cc1cccc(NC(=O)C(Cc2ccccc2)NC(=O)OCc2ccccc2)c1	EC50	M-HELA		plaque count			Coronavirus	>50 µM
CC(C)CN(CCC(O)CN1CCN(Cc2cccnc2)C[C@H]1C(=O)NC(C)(C)C)S(=O)(=O)c1ccccc1	EC90	CEM		p24	IIIB		HIV-1	1 µM
CSc1nsc(-c2ccc(OCc3ccccc3)cc2)c1C#N	EC50	HEP-2		plaque count	Edmonston		Measles virus	10 µM
Cc1cc(NS(=O)(=O)c2ccc(NC(=S)Nc3ccccc3Cl)cc2)no1	EC50	CEM174		syncytia			SIV	8 µM
Nc1ncnc2c1ncn2[C@@H]1C=C[C@@H](O)[C@H]1O	EC50	CV-1		cytopathic effect	Edmonston		Measles virus	>64 µg/mL
COc1ccc(S(=O)(=O)N(CC(C)C)C[C@@H](O)CCN(CC2CCCC2)S(=O)(=O)C2CCCS(=O)(=O)C2)cc1	EC90	CEM		p24	IIIB		HIV-1	1 µM
CC(C)C1=C2[C@H]3CC[C@@H]4[C@@]5(C)CC[C@H](OC(=O)CC(C)(C)C(=O)O)C(C)(C)[C@@H]5CC[C@@]4(C)[C@]3(C)CC[C@@]2([C@@H](O)CN(CCN(C)C)Cc2ccc(Cl)cc2)CC1=O	EC50	CEM-SS + MAGIC-5A		syncytia / visual reading / single cycle	MAC251		SIV	0.1 µM
Nc1ncnc2c1ncn2[C@@H]1CC[C@@H](O)[C@H]1O	EC50	CV-1		cytopathic effect	CC		Measles virus	0.5 µg/mL
CCC[C@H](O)C[C@@H]1CC[C@H](C)CCCCC(=O)N(C)[C@@H](Cc2ccc(OCCO)cc2)C(=O)O1	MIC				ERG24		Saccharomyces cerevisiae	12.5 µg/mL
CCCCOc1ccc(-c2snc(SC)c2C#N)cc1	EC50	HEP-2		plaque count	TYPE B1		Coxsackie virus	10 µM
CN[C@H]1CC[C@@H](c2ccc(Cl)c(Cl)c2)c2ccccc21	MIC90			broth dilution	A7-35-23		Cryptococcus neoformans	3 µg/mL
CSc1nsc(-c2ccccc2Cl)c1C#N	EC50	L929		plaque count	Encephalomyocarditis virus		Encephalomyocarditis virus	>5 µM
Nc1ncnc2c1ncn2C[C@H](O)CO	MIC				TYPE 1		Reovirus	240 µg/mL
Nc1nc2c(ncn2CCC(CO)CO)c(=O)[nH]1	EC50	FEA		plaque count	B927		Equine herpesvirus 1	0.9 µg/mL
O=C(O)P(=O)(O)O	inhibition	HFF	100 µM	hybridisation	AD169		Cytomegalovirus	41.6%
CC1(C(=O)O)CCC2(C)CCC3(C)C(=CC(=O)C4C5(C)CCC(OC(=O)C6CCCCC6C(=O)O)C(C)(C)C5CCC43C)C2C1	inhibition		50 µM	virus yield	TYPE 5		Adenovirus	98%
Nc1ccc(S(=O)(=O)NC(Cc2ccccc2)C(F)(F)C(=O)[C@@H](Cc2ccccc2)NC(=O)O[C@H]2CCOC2)cc1	EC90	CEM		p24	IIIB		HIV-1	1 µM
Nc1ncnc2c1ncn2[C@@H]1C[C@H](N)[C@@H](O)[C@H]1O	EC50	CV-1		virus yield			Measles virus	0.1 µg/mL
CCC(C)n1ncn(-c2ccc(N3CCN(c4ccc(OC[C@H]5CO[C@](Cn6cncn6)(c6ccc(Cl)cc6Cl)O5)cc4)CC3)cc2)c1=O	MIC			broth dilution	Clinical isolate (IM 972751)		Cryptococcus neoformans	<0.015 µg/mL
CCC(C)CC(C)CCCCCCCCC(=O)N[C@H]1C[C@@H](O)[C@H](NCCN)NC(=O)[C@@H]2[C@@H](O)CCN2C(=O)[C@H]([C@H](O)CCN)NC(=O)[C@H]([C@H](O)[C@@H](O)c2ccc(O)cc2)NC(=O)[C@@H]2C[C@@H](O)CN2C(=O)[C@H]([C@@H](C)O)NC1=O	MIC			broth dilution	B 29739		Cryptococcus neoformans	32 µg/mL
COc1cccc(NC(=S)Nc2ccc(S(=O)(=O)Nc3cc(C)on3)cc2)c1	EC50	CEM174		syncytia			SIV	4 µM
CCn1nc(CC(=O)NN=C(C)C)nc1C	MIC				TYPE 1		Reovirus	>80 µg/mL
Nc1nc(Cl)cc(NCC2(CO)CC2)n1	EC50	MDCK		plaque count	B/GIFU/2/73		Influenza B virus	>440 µM
Cn1nc(Cc2ccc(Cl)cc2)c2ccccc2c1=O	MIC50			broth dilution	Clinical isolate (IM 042074)		Cryptococcus neoformans	3.9 µg/mL
CCOC(=O)c1ccc(OCCC2CCN(c3ccc(C)nn3)CC2)cc1	EC50	KB		neutral red	1200 (ICAM-1 receptor group 33)		Rhinovirus	0.054 µM
O=C(O)P(=O)(O)O	EC50	MRC-5			209		Cytomegalovirus	108.5 µM
CC(=O)Nc1ccc(C(=O)O)cc1	inhibition		1000 µM				Pneumocystis carinii	99%
Nc1nc(Cl)cc(NCC2(CO)CCCC2)n1	EC50	MDCK		plaque count	B/GIFU/2/73		Influenza B virus	22–32 µM
CC(=O)N[C@H]1[C@H]([C@H](O)[C@H](O)CO)OC(C(=O)O)=C[C@@H]1N=C(N)N	EC50	MDCK			Influenza A/Beijing/32/92 (H3N2)		Influenza A virus	0.65 µM
Nc1nc2c(ccn2[C@@H]2C[C@H](CO)[C@H](O)[C@@H]2O)c(=O)[nH]1	MIC						Sindbis virus	>100 µg/mL
Cc1cc(NS(=O)(=O)c2ccc(NC(=S)Nc3ccc(C#N)cc3)cc2)no1	EC50	CEM174		syncytia			SIV	4.1 µM
CN(C)c1cccc2c(S(=O)(=O)Nc3ccc(NC(=O)C(C)(C)CO)cc3)cccc12	EC50	GPL		plaque count	ATCC VR682		Guinea pig cytomegalovirus	0.5 µM
CCCCCCCCOC(=O)[C@]1(O)C[C@@H](O)[C@@H](O)[C@H](OC(=O)/C=C/c2ccc(O)c(O)c2)C1	MIC80				Speare UMIP 1142.76		Aspergillus parasiticus	1000 µg/mL
COc1ccc(-n2c(Cc3nc4n(n3)CCCC4)n[nH]c2=S)cc1	MIC				TYPE 1		Reovirus	>400 µg/mL
Cn1cc(C(=O)NCc2ccc(Cl)cc2)c(=O)c2cc(CN3CCOCC3)ccc21	inhibition	HFF	5.2 µM	plaque count	PH		Human cytomegalovirus	90%
N#Cc1c(Cl)nsc1Cl	EC50	HEP-2		plaque count	Edmonston		Measles virus	>4 µM
C=CCc1ccc(OC)c(OC)c1	MIC90			turbidity	2829		Candida tropicalis	350 µg/mL
Cc1cc(NCC2(CO)CCC2)nc(N)n1	EC50	MDCK		plaque count	B/GIFU/2/73		Influenza B virus	>140 µM
NCC(=O)Nc1ccc(Cn2cnc3c(N)ncnc32)cc1	EC50	M-HELA		plaque count			Coronavirus	>50 µM
Cc1nc(Cc2n[nH]c(=S)n2-c2ccccc2)nn1C	MIC						Respiratory syncytial virus	80 µg/mL
CN(C)c1cccc2c(S(=O)(=O)Nc3ccc(NC(=O)C(C)(C)CO)cc3)cccc12	EC50			plaque count	Priscott		Rat cytomegalovirus	0.019 µM
CC(=O)N[C@H]1C[C@@H](n2cnc3c(N)ncnc32)[C@H](O)[C@@H]1O	EC50	HFF					West Nile virus	>100 µg/mL
CCn1nc(Cc2n[nH]c(=S)o2)nc1C	MIC						Respiratory syncytial virus	>400 µg/mL
Nc1ncnc2c1ncn2[C@@H]1C[C@H](Sc2ccccc2)[C@@H](O)[C@H]1O	EC50	CV-1		neutral red			Measles virus	>100 µg/mL
O=S(=O)(c1ccccc1)N(CC(O)CN(CC1CCCC1)S(=O)(=O)c1ccc(O)cc1)CC1CCCC1	EC90	CEM		p24	IIIB		HIV-1	1 µM
Nc1nc(Cl)cc(NCC2(CO)CC(O)C2)n1	EC50	MDCK		plaque count	B/GIFU/2/73		Influenza B virus	>120 µM